Pooled drug test results. Numbers come from NIAID ChemDB, via PubChem.

Shared fields: growth or infection tests

Inhibition is in % at the dose shown (toxicity tests: loss of growth or viability). Blank or dashed fields: not listed here. ECn: concentration that inhibits the pathogen or its effect by n%. Neighbouring rows are from separate reports. MIC50, MIC90 and the like: level of inhibition, or share of isolates inhibited. a–b is a range or a potency band.

compound	measure	agent	strain	read by	setting	dose	value
CO[C@H]1/C=C/O[C@@]2(C)Oc3c(C)c(O)c4c(O)c(c(/C=N/N5CCN(C6CCCC6)CC5)c(O)c4c3C2=O)NC(=O)/C(C)=C\C=C\[C@H](C)[C@H](O)[C@@H](C)[C@@H](O)[C@@H](C)[C@H](OC(C)=O)[C@@H]1C	MIC50	Mycobacterium avium intracellulare	21 strains				0.5 µg/mL
Nc1nc(N)c2c(n1)NC(c1ccc3c(c1)OCO3)CC(c1ccc(Cl)cc1)=N2	MIC	Mycobacterium scrofulaceum	MNT1193	MTT / broth dilution / absorbance	clinical isolate		32 µg/mL
Cc1cc(O)c(C=O)c2c1C(=O)Oc1c(CO)c(O)c3c(c1O2)C(O)OC3=O	MIC	Mycobacterium aurum					250 µg/mL
OB1OC(N2CCCCC2)c2ccccc21	MBC	Mycobacterium luteum		turbidity			15.6 µg/mL
CCc1nc2ccc(Cl)cn2c1C(=O)NCc1ccc(OC(F)(F)F)cc1	MIC50	Mycobacterium ulcerans		fluorescence			0.01–0.1 µg/mL
Fc1cc(F)c(B2Oc3ccccc3O2)c(F)c1	MIC	Mycobacterium luteum		turbidity			62.5 µg/mL
CO[C@H]1/C=C/O[C@@]2(C)Oc3c(C)c(O)c4c(=O)c(c5oc6cc(N7CCN(CC(C)C)CC7)cc(=O)c6nc5c4c3=C2O)NC(=O)/C(C)=C\C=C\[C@H](C)[C@H](O)[C@@H](C)[C@@H](O)[C@@H](C)[C@H](OC(C)=O)[C@@H]1C	MIC	Mycobacterium ulcerans	Isolate 5155				0.025 µg/mL
COc1ccc(NC(=O)c2cc(Cl)ccc2OC(=O)[C@@H](NC(=O)OCc2ccccc2)C(C)C)cc1	MIC100	Mycobacterium marinum	CAMP 5644	broth dilution			251 µM
CC(=O)NC[C@H]1CN(c2ccc3c(c2)OC(F)(F)c2nccn2-3)C(=O)O1	MIC	Mycoplasma pneumoniae					>32 µg/mL
CC(C)NCC(C)NC(C)C	EC50	Mycobacterium smegmatis	ATCC 607				<250 µg/mL
CC(=O)c1cccc(N2C(=O)C[C@@H](C3OC4OC(C)(C)OC4[C@H]3Oc3ccccc3)N(C3CC3)C2=O)c1	MIC	Mycobacterium aurum					>25 µg/mL
C=C1C(=O)O[C@@H](CCCCCCCCCCCCC)[C@@H]1C(=O)O	MIC	Mycobacterium aurum					250 µg/mL
O=c1ccn([C@H]2CC[C@@H](CO)O2)c(=O)[nH]1	EC50	Mycobacterium avium	ATCC 25291				>50 µg/mL
O=C(Oc1cc(Cl)ccc1C(=O)Nc1ccc(C(F)(F)F)cc1)c1cnccn1	MIC	Mycobacterium kansasii	6509/96		21 d		1 µM
COC(=O)N1CCc2c(OC)c(OC)c(O)c3c2[C@@H]1Cc1cc2c(cc1-3)OCO2	MIC	Mycobacterium bovis	BCG	resazurin			256 µM
Cc1cn([C@H]2C[C@H](N=[N+]=[N-])[C@@H](CO)O2)c(=O)[nH]c1=O	EC50	Mycobacterium avium	ATCC 25291				>50 µg/mL
COc1ccc(C2=Nc3c(N)nc(N)nc3NC(c3ccc4c(c3)OCO4)C2)cc1	MIC	Mycobacterium scrofulaceum	MNT1193	MTT / broth dilution / absorbance	clinical isolate		>32 µg/mL
COC(=O)c1cnccn1	MIC	Mycobacterium kansasii	6509/96		14 d		500 µM
CCOC(=O)C[C@@H](C1O[C@@H]2OC(C)(C)O[C@@H]2[C@H]1Oc1ccccc1)N(C(=O)Nc1cccc(C(C)=O)c1)C1CC1	MIC	Mycobacterium aurum					>25 µg/mL
COC(=O)c1cc(O)c(O)c(O)c1	MIC	Mycobacterium aurum		broth dilution / resazurin			250 µg/mL
CCc1cn([C@H]2C[C@H](O)[C@@H](CO)O2)c(=O)[nH]c1=O	EC50	Mycobacterium avium	ATCC 25291				>50 µg/mL
O=c1oc2ccc(F)cc2c(=S)n1-c1ccc(F)cc1	MIC	Mycobacterium kansasii	My 235/80		14 d		8 µM
O=C(Oc1cc(Cl)ccc1C(=O)Nc1ccc(Br)cc1)c1cnccn1	MIC	Mycobacterium kansasii	6509/96		7 d		2 µM
Cc1cn([C@H]2C[C@H](F)[C@@H](CO)O2)c(=O)[nH]c1=O	EC50	Mycobacterium avium	ATCC 25291				>50 µg/mL
O=C(Oc1cc(Cl)ccc1C(=O)Nc1ccc(Cl)c(Cl)c1)c1cnccn1	MIC	Mycobacterium kansasii	235/80		7 d		4 µM
CC(=O)NC[C@H]1CN(c2ccc3c(c2)OCC2=NCCN23)C(=O)O1	MIC	Mycoplasma pneumoniae					>32 µg/mL
FC(F)(F)c1ccc(-n2c(=S)oc3ccc(Br)cc3c2=S)cc1	MIC	Mycobacterium kansasii	6509/96		21 d		32 µM
CC(=O)NC[C@H]1CN(c2ccc3c(c2)OCc2nncn2-3)C(=O)O1	MIC	Mycoplasma pneumoniae					32 µg/mL
Cc1ccc(NC(=O)c2cc(Cl)ccc2OC(=O)[C@@H](Cc2cc3ccccc3[nH]2)NC(=O)OCc2ccccc2)cc1	MIC100	Mycobacterium marinum	CAMP 5644	broth dilution			110 µM
CC(=O)c1ccc(B(O)O)cc1	MIC	Mycobacterium luteum		turbidity			15.6 µg/mL
C[C@@H]1CN(c2c(F)c(N)c3c(=O)c(C(=O)O)cn(C4CC4)c3c2F)C[C@H](C)N1	MIC	Mycobacterium scrofulaceum	ATCC 19981	broth dilution / visual reading			0.5 µg/mL
CC(C)CNCCNCC(C)C	inhibition	Mycobacterium smegmatis	ATCC 607			250 µg/mL	0%
OB1OCc2cc(F)ccc21	MIC	Mycobacterium luteum		turbidity			1.9 µg/mL
O=c1oc2ccc(Cl)cc2c(=S)n1-c1ccc(F)cc1	MIC	Mycobacterium kansasii	My 235/80		21 d		16 µM
CCCCCCCCCCCCN1C(=O)N(c2cccc(C(C)=O)c2)C(=O)C[C@H]1C1OC2OC(C)(C)OC2[C@H]1Oc1ccccc1	MIC	Mycobacterium aurum					>25 µg/mL
Cc1ccc2oc(=O)n(-c3ccc(Cl)c(Cl)c3)c(=S)c2c1	MIC	Mycobacterium kansasii	6509/96		21 d		8 µM
CC(=O)NC[C@H]1CN(c2ccc3c(c2)COc2nccn2-3)C(=O)O1	MIC	Mycoplasma pneumoniae					16 µg/mL
CSc1nc(N)c2c(n1)NC(c1ccc(Cl)cc1)CC(c1ccc3c(c1)OCO3)=N2	MIC	Mycobacterium scrofulaceum	MNT1193	MTT / broth dilution / absorbance	clinical isolate		>32 µg/mL
Fc1ccc(-n2c(=S)oc3ccc(Cl)cc3c2=S)cc1	MIC	Mycobacterium kansasii	6509/96		14 d		8 µM
CC(C)NCCCCNC(C)C	EC50	Mycobacterium smegmatis	ATCC 607				>1000 µg/mL
CC(=S)NC[C@H]1CN(c2ccc3c(c2)OCc2nccn2-3)C(=O)O1	MIC	Mycoplasma pneumoniae					2 µg/mL
CC1(C)N=C(N)N=C(N)N1OCCCOc1cc(Cl)c(Cl)cc1Cl	MIC	Mycobacterium avium complex	101				1 µg/mL
CCCCCCCCCCCCN(C(=O)NCc1ccccc1)[C@@H](CC(=O)OCC)C1O[C@@H]2OC(C)(C)O[C@@H]2[C@H]1Oc1ccccc1	MIC	Mycobacterium aurum					>25 µg/mL
COc1ccc2oc(=S)n(-c3ccc(Br)cc3)c(=S)c2c1	MIC	Mycobacterium kansasii	6509/96		14 d		32 µM
CC(C)N=c1cc2n(-c3ccc(Cl)cc3)c3ccccc3nc-2cc1Nc1ccc(Cl)cc1	MIC50	Mycobacterium bolletii	Clinical isolate	broth dilution			≤0.5 µg/mL
O=C(Oc1ccc(Cl)cc1C(=O)Nc1ccc(Cl)cc1)c1cnccn1	MIC	Mycobacterium kansasii	235/80		14 d		2 µM
CCc1nc2ccc(Cl)cn2c1C(=O)NCc1ccc(N2CCC(c3ccc(OC(F)(F)F)cc3)CC2)cc1	MIC50	Mycobacterium ulcerans		fluorescence			<0.001 µg/mL
CCCCCCCc1cn(CC2Cc3cn(-c4ccccc4)c4cccc(c34)C(=O)O2)nn1	EC50	Mycobacterium spp.	MC2 6230	visual reading			>100 µg/mL
C[C@H](NCCN[C@H](C)c1ccccc1)c1ccccc1	EC50	Mycobacterium smegmatis	ATCC 607				<250 µg/mL
CC(=O)NC[C@H]1CN(c2ccc3c(c2)OCc2cncn2-3)C(=O)O1	MIC	Mycoplasma pneumoniae					4 µg/mL
Fc1cccc(-n2c(=S)oc3ccc(F)cc3c2=S)c1	MIC	Mycobacterium kansasii	6509/96		21 d		16 µM
O=c1[nH]c(=O)n([C@H]2C[C@H](O)[C@@H](CO)O2)cc1/C=C/Cl	EC50	Mycobacterium avium	ATCC 25291				>50 µg/mL
OB1OC(N2CCN(C3OB(O)c4ccccc43)CC2)c2ccccc21	MBC	Mycobacterium luteum		turbidity			0.9 µg/mL
COc1cc(CC(C)C(C)Cc2ccc(O)c(OC)c2)ccc1O	MIC	Mycobacterium bovis	BCG	resazurin			256 µM
CCCCCCCN1C(=O)N(Cc2ccccc2)C(=O)C[C@H]1C1OC2OC(C)(C)OC2[C@H]1OC	MIC	Mycobacterium aurum					>25 µg/mL
CC(C)CC(C)NCCNC(C)CC(C)C	EC50	Mycobacterium smegmatis	ATCC 607				>250 µg/mL
Cc1cn([C@H]2CC[C@@H](CO)O2)c(=O)[nH]c1=O	inhibition	Mycobacterium avium	ATCC 25291			50 µg/mL	0%
CC1(C)N=C(N)N=C(N)N1OCCCOc1cc(Cl)c(Cl)cc1Cl	MIC	Mycobacterium avium complex	1102				4 µg/mL
O=C1OC(Cn2cc(C3CC3)nn2)Cc2cn(-c3ccccc3)c3cccc1c23	EC50	Mycobacterium spp.	MC2 6230	visual reading			>100 µg/mL
CCc1nc(N)nc(N)c1-c1ccc(Cl)cc1	MIC	Mycobacterium avium complex	101				32 µg/mL
Fc1ccc(-n2c(=S)oc3ccc(F)cc3c2=S)cc1	MIC	Mycobacterium kansasii	6509/96		21 d		8 µM
CSc1nc(N)c2c(n1)NC(c1ccccc1)CC(c1ccc3c(c1)OCO3)=N2	MIC	Mycobacterium scrofulaceum	MNT1193	MTT / broth dilution / absorbance	clinical isolate		>32 µg/mL
Cc1cc(CNC(=O)c2c(Cl)nc3ccccn23)ccc1N(C)C	MIC50	Mycobacterium ulcerans		fluorescence			0.01–0.1 µg/mL
CCCCCCCCCCCCN(C(=O)Nc1ccc(Cl)cc1)[C@@H](CC(=O)OCC)C1O[C@@H]2OC(C)(C)O[C@@H]2[C@H]1Oc1ccccc1	MIC	Mycobacterium aurum					>25 µg/mL
CSc1nc(N)c2c(n1)NC(c1ccc(C(F)(F)F)cc1)CC(c1ccc3c(c1)OCO3)=N2	MIC	Mycobacterium scrofulaceum	MNT1193	MTT / broth dilution / absorbance	clinical isolate		>32 µg/mL
CCCCc1cn(CC2Cc3cn(-c4ccccc4)c4cccc(c34)C(=O)O2)nn1	EC50	Mycobacterium spp.	MC2 6230	visual reading			>100 µg/mL
O=c1[nH]c(=O)n([C@@H]2O[C@H](CO)[C@@H](O)[C@H]2F)cc1/C=C/I	EC50	Mycobacterium avium	ATCC 25291				>50 µg/mL
CN(Cc1cn(CC2Cc3cn(-c4ccccc4)c4cccc(c34)C(=O)O2)nn1)S(C)(=O)=O	EC50	Mycobacterium spp.	MC2 6230	visual reading			>100 µg/mL
CC1(C)OC2OC([C@@H]3CC(=O)N(Cc4ccccc4)C(=O)N3C3CC3)[C@H](Oc3ccccc3)C2O1	MIC	Mycobacterium aurum					>25 µg/mL
CN1CCCc2cc(CNC(=O)c3c(Cl)nc4ccccn34)ccc21	MIC50	Mycobacterium ulcerans		fluorescence			0.01–0.1 µg/mL
COc1ccc(-c2cn(CC3Cc4cn(-c5ccccc5)c5cccc(c45)C(=O)O3)nn2)cc1	EC50	Mycobacterium spp.	MC2 6230	visual reading			>100 µg/mL

The first 4 rows once more:

compound | measure | agent | strain | read by | setting | dose | value
CO[C@H]1/C=C/O[C@@]2(C)Oc3c(C)c(O)c4c(O)c(c(/C=N/N5CCN(C6CCCC6)CC5)c(O)c4c3C2=O)NC(=O)/C(C)=C\C=C\[C@H](C)[C@H](O)[C@@H](C)[C@@H](O)[C@@H](C)[C@H](OC(C)=O)[C@@H]1C | MIC50 | Mycobacterium avium intracellulare | 21 strains |  |  |  | 0.5 µg/mL
Nc1nc(N)c2c(n1)NC(c1ccc3c(c1)OCO3)CC(c1ccc(Cl)cc1)=N2 | MIC | Mycobacterium scrofulaceum | MNT1193 | MTT / broth dilution / absorbance | clinical isolate |  | 32 µg/mL
Cc1cc(O)c(C=O)c2c1C(=O)Oc1c(CO)c(O)c3c(c1O2)C(O)OC3=O | MIC | Mycobacterium aurum |  |  |  |  | 250 µg/mL
OB1OC(N2CCCCC2)c2ccccc21 | MBC | Mycobacterium luteum |  | turbidity |  |  | 15.6 µg/mL